In brackets after ≈: the same amount, converted by molar mass.
Legend:
[1] = test system: B. anthracis Sterne
[2] = test system: S. aureus Mu50; assay: Bacteriostatic effect, S. aureus Mu50
[3] = molecular target: PaSecA (Pseudomonas aeruginosa, UniProt Q9LCT3)
[4] = molecular target: MtbSecA (Mycobacterium tuberculosis, UniProt P9WGP5)

Sequences of proteins named here, by UniProt entry; tags and fusion partners are left off.
UniProt Q9LCT3, whole entry: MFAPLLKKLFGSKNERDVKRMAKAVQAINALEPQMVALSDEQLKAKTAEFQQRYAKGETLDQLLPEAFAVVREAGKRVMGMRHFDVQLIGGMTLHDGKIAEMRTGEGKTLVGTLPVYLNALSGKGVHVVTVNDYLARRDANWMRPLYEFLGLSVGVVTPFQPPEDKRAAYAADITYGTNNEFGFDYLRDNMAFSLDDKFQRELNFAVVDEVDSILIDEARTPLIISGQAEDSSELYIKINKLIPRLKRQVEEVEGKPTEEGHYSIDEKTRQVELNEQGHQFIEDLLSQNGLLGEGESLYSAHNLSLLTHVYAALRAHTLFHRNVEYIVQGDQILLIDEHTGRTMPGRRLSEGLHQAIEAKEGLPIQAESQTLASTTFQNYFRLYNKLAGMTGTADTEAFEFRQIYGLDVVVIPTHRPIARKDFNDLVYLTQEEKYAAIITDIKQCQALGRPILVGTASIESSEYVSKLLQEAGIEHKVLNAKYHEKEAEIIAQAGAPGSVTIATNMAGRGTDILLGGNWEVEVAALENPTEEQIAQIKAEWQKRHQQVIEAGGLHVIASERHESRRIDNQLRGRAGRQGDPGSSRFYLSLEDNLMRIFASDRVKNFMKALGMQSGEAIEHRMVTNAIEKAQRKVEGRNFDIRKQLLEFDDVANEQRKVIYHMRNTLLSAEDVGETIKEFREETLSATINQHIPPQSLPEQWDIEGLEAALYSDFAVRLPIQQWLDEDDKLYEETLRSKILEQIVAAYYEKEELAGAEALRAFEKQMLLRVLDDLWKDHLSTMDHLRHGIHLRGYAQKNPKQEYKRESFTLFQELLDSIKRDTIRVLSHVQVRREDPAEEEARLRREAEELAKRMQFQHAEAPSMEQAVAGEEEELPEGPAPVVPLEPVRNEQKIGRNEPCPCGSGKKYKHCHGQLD
UniProt P9WGP5, whole entry: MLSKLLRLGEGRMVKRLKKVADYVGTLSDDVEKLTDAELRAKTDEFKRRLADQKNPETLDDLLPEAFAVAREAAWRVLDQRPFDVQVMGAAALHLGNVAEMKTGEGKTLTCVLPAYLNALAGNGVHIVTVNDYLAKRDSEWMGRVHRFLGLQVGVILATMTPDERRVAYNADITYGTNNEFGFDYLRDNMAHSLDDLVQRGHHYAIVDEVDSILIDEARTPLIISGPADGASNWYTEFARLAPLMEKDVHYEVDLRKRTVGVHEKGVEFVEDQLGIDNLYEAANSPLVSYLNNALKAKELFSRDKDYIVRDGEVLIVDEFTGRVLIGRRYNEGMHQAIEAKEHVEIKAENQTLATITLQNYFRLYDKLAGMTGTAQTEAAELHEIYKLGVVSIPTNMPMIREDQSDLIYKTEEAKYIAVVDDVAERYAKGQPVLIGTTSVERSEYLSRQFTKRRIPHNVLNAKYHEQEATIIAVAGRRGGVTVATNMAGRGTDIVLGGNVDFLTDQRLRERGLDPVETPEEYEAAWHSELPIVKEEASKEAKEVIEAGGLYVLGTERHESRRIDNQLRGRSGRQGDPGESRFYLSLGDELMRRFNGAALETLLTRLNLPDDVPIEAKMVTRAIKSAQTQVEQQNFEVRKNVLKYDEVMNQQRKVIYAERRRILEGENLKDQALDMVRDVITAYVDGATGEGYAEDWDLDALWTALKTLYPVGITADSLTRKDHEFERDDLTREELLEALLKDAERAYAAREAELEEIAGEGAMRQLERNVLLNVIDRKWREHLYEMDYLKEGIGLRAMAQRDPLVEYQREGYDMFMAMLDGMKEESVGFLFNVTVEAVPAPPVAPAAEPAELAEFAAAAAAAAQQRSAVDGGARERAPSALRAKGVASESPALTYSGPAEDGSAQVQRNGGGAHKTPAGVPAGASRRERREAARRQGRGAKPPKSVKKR

FC(F)(F)c1cc(-c2nnc(Sc3cc(Cl)nc(Sc4ccccc4)n3)[nH]2)cc(C(F)(F)F)c1
Bacteriostatic MIC95, B. anthracis Sterne [1]: 0.8 µg/mL | Bacteriostatic MIC95, S. aureus Mu50 ([2]; Table 2): 0.4 µg/mL | MIC95 against drug resistant S. aureus Mu50 ([2]; text b443): 0.4 µM (≈ 0.214 µg/mL) | IC50 [3]: 1100 nM | IC50 [4]: 2000 nM
